The numbers were not newly measured in PMC7504092, “Synthesis and Antiplasmodial Evaluation of 4-Carboxamido- and 4-Alkoxy-2-Trichloromethyl Quinazolines” (Molecules, 2020), which cites them from elsewhere.

The subject of the data set is K1 P. falciparum strain. The settings on record: CC50/EC50, previously described compounds; ref 9 (A), 10 (B), 11 (C); cited from earlier work.

A value given as a limit tells only on which side of the number the result lay.

Consider `Fc1ccc(-c2nc(C(Cl)(Cl)Cl)nc3ccccc23)cc1` [A, 4-(4′-fluorophenyl)-2-trichloromethylquinazoline], for which the “Selectivity Index (SI)” value was more than 50.

As for `O=[N+]([O-])c1ccc(COc2nc(C(Cl)(Cl)Cl)nc3ccccc23)cc1` [C], the “Selectivity Index (SI)” value is on record as 11.
